Anti-infective test results gathered from many reports (values: NIAID ChemDB through PubChem).

Shared fields: whole-cell or culture tests; organism: HIV-1; cells: CEM; measure: EC50

ECn: concentration that inhibits the pathogen or its effect by n%.

SMILES,strain,changes,read by,conditions,value
O=C1c2ccccc2[C@@]2(O)C3C4C[C@H]5CC(C[C@H]3C5)C4N12,IIIB,-,syncytia,-,>20 µg/mL
O=S(=O)(Cc1ccccc1I)c1cccc[n+]1[O-],IIIB,RT-Y181C,syncytia,-,20 µg/mL
Cc1ccc(C)c(CSc2c(Cl)ccc[n+]2[O-])c1,RF,-,cytopathic effect,-,0.16 µg/mL
Cc1ccsc1C(=O)Nc1ccc(Cl)c(C(=O)OC2CCCCC2)c1,-,RT-Y181C,syncytia,-,13 µM
CCC(=O)c1ccc2c(c1)sc(=O)n2Cc1ccccc1,IIIB,-,syncytia,-,>8 µg/mL
CNC(=O)c1ccccc1SSc1ccccc1C(=O)NC,-,-,cytopathic effect / XTT,-,>11 µM
CC(=O)Nc1cccc(S(=O)(=O)N(CC(C)C)C[C@@H](O)[C@H](Cc2ccccc2)NC(=O)OC2CCOC2)c1,IIIB,-,p24,-,<1 µM
CCOCn1c(Cc2ccccc2)c(CC)c(=O)[nH]c1=O,IIIB,RT-Y188H,syncytia,-,≥30 µM
CCC1=C(C(=O)OCC2CCCCC2)[C@H](c2ccc([N+](=O)[O-])cc2)NC(=O)N1,-,-,p24 / ELISA,-,≤1 µM
CCc1c(Sc2ccccc2)n(COCc2ccccc2)c(=O)[nH]c1=O,IIIB (TIBO 82150) (RT-L100I),RT-L100I,syncytia,-,0.02 µM
Cc1ccoc1C(=S)Nc1ccc(Cl)c(C(=O)OC(C)C)c1,IIIB,-,syncytia,-,0.31 µM
O=C(O)CNC(=O)c1ccccc1SSc1ccccc1C(=O)NCC(=O)O,-,-,cytopathic effect / XTT,-,51 µM
CCC1=C(C(=O)OCC2CCCCC2)C(c2cc(Cl)c(NC(=O)OC(C)(C)C)c(Cl)c2)NC(=O)N1,-,-,p24 / ELISA,-,≤1 µM
C/C(Cl)=C/COc1cc(NC(=S)c2ccoc2C)ccc1Cl,TSAO-m3T-resistant (RT E138K),RT-E138K,syncytia,-,0.008 µg/mL
Cc1ccsc1C(=S)Nc1ccc(Cl)c(C(=O)OC(C)C)c1,-,RT-Y181C,syncytia,-,1.6 µM
CC(=O)Oc1cccc(C2NC(=O)NC(C)=C2C(=O)OCC2CCCCC2)c1,-,-,p24 / ELISA,-,≤1 µM
O=C(c1ccccc1)N(CCc1ccccc1)C[C@H](O)CN(CC1CCCC1)S(=O)(=O)C1CCCCC1,IIIB,-,p24,-,<1 µM
CCC(CC)OC(=O)c1cc(NC(=S)c2ccccc2N)ccc1Cl,IIIB,-,syncytia,-,1.9 µM
CCC(=O)c1ccc2c(c1)sc(=O)n2CCN1CCCCC1,IIIB,-,syncytia,-,>40 µg/mL
CN[C@@H]1[C@H](O[C@@H]2OC[C@@H](O)[C@H](O)[C@H]2O)[C@@H](O)[C@H](O[C@H]2c3cc(C)c(C(=O)N[C@H](C)C(=O)O)c(O)c3-c3c(cc4c(c3O)C(=O)c3cc(OC)cc(O)c3C4=O)[C@@H]2O)O[C@@H]1C,Mutant AH_3/#82,-,syncytia,-,7.8 µM
CCC1=C(C(=O)OCC2CCCCC2)C(c2ccc([N+](=O)[O-])c(Cl)c2)NC(=O)N1,-,-,p24 / ELISA,-,≤1 µM
O=C(Nc1cccc(O)c1)c1ccccc1SSc1ccccc1C(=O)Nc1cccc(O)c1,-,-,cytopathic effect / XTT,-,15 µM
O=C(c1cccc([N+](=O)[O-])c1)c1ccc2[nH]c(=O)oc2c1,IIIB,-,syncytia,-,>8 µg/mL
CC(C)c1c(Sc2ccccc2)n(COCc2ccccc2)c(=S)[nH]c1=O,IIIB,RT-Y188H,syncytia,-,≥10 µM
CC(C)CN(CCC(O)CN1CCCC[C@H]1C(=O)NC(C)(C)C)S(=O)(=O)c1ccccc1,IIIB,-,p24,-,<1 µM
Cc1cc(S(=O)(=O)Nc2nnc3c4ccccc4cnn23)c(S)cc1Cl,6R (AZT-resistant),-,p24,-,53.9 µM
C=C(Cl)COc1cc(NC(=S)c2ccoc2C)ccc1Cl,Pyridone-resistant (RT Y181C),RT-Y181C,syncytia,-,1.07 µg/mL
Cc1ccc(C)c(C(C)S(=O)(=O)c2c(C)ccc[n+]2[O-])c1,RF,-,syncytia,-,0.3 µg/mL
Cc1occc1C(=S)Nc1ccc(Cl)c(OC(=O)OC(C)C)c1,-,RT-V106A,syncytia,-,9 µM
NC(=O)c1ccc(NC(=O)c2ccccc2SSc2ccccc2C(=O)Nc2ccc(C(N)=O)cc2)cc1,-,-,XTT,-,2.3 µM
Cc1sccc1C(=S)Nc1ccc(Cl)c(OCC=C(Cl)Cl)c1,Pyridone-resistant (RT Y181C),RT-Y181C,syncytia,-,0.23 µg/mL
CCOCn1c(Sc2cc(C)cc(C)c2)c(CC)c(=O)[nH]c1=O,IIIB,RT-Y181C,syncytia,-,0.3 µM
Cc1ccc(C)c(CS(=O)c2ccc(Cl)c[n+]2[O-])c1,IIIB,RT-K103N,syncytia,-,9 µg/mL
COc1ccc(S(=O)(=O)N(CC(C)C)CC(O)CCN2CSCC2C(=O)NC(C)(C)C)cc1,IIIB,-,p24,-,<1 µM
C#CCO/N=C/c1cc(NC(=S)c2ccoc2C)ccc1Cl,-,RT-V106A,syncytia,-,1 µM
CC(=O)Nc1ccc(S(=O)(=O)N(CC(C)C)C[C@@H](O)[C@H](Cc2ccccc2)NC(=O)OCc2ccccc2)cc1,IIIB,-,p24,-,<10 µM
C/C(Cl)=C/COc1cc(NC(=O)c2ccoc2C)ccc1Cl,TIBO R82913-resistant (RT K103N),RT-K103N,syncytia,-,2.5 µg/mL
COc1ccc(S(=O)(=O)N(CC2CCCC2)C(=O)C(=O)C(=O)[C@@H](Cc2ccccc2)NC(=O)OC2COCOC2)cc1,IIIB,-,p24,-,<1 µM
Cc1cccc(CS(=O)(=O)c2cccc[n+]2[O-])c1,HE,-,syncytia,-,10 µg/mL
O=C1NC(CCO)=C(C(=O)OCC2CCCCC2)C(c2cccc(O)c2)N1,-,-,p24 / ELISA,-,>5 µM
Cc1cc(C)c(CS(=O)c2cccc[n+]2[O-])c(C)c1,RF,-,cytopathic effect,-,12 µg/mL
CC1=C(C(=O)Nc2ccc(Cl)c(C(=O)OC(C)C)c2)SCCO1,IIIB,RT-E138K,syncytia,-,>61 µM
CC(=O)c1ccc(NC(=O)c2ccccc2SSc2ccccc2C(=O)Nc2ccc(C(C)=O)cc2)cc1,-,-,cytopathic effect / XTT,-,19 µM
CC(=O)NS(=O)(=O)c1ccc(NC(=O)c2ccccc2SSc2ccccc2C(=O)Nc2ccc(S(=O)(=O)NC(C)=O)cc2)cc1,-,-,XTT,-,16 µM
O=C1c2ccccc2C(=O)N1C12CC3CC(CC(C(=O)O)(C3)C1)C2,IIIB,-,syncytia,-,>20 µg/mL
O=C(O)c1ccc(NC(=O)c2ccccc2SSc2ccccc2C(=O)Nc2ccc(C(=O)O)cc2)cc1,-,-,XTT,-,3 µM
Cn1cccc1C(=S)Nc1ccc(Cl)c(/C=N/OC(C)(C)C)c1,-,RT-Y181C,syncytia,-,0.126 µM
O=C1c2ccccc2C(=O)N1CCC12CC3CC(CC(C3)C1)C2,IIIB,-,syncytia,-,>4 µg/mL
COc1ccc(S(=O)(=O)N(CC(O)CN2CC(c3ccccc3)c3ccccc3C2=O)CC2CCCC2)cc1,IIIB,-,p24,-,<1 µM
O=[N+]([O-])c1ccc[n+]([O-])c1SCc1ccccc1,IIIB,-,syncytia,-,2.2 µg/mL
O=C(Nc1ccc(Cl)c(C(=O)OC2CCCCC2)c1)c1ccccc1F,IIIB,RT-D138K,syncytia,-,4 µg/mL
CCOCn1c(Cc2ccccc2)c(C(C)C)c(=O)[nH]c1=O,IIIB,Nevirapine resistant (RT Y181C),syncytia,-,0.23 µM
COC(=O)c1ccccc1SSc1ccccc1C(=O)OC,-,-,cytopathic effect / XTT,-,>9.3 µM
COc1ccccc1C(=S)Nc1ccc(Cl)c(C(=O)OC(C)C)c1,-,RT-Y181C,syncytia,-,12 µM
CCCCC(=O)c1ccc2c(c1)sc(=O)n2CC=O,IIIB,-,syncytia,-,>8 µg/mL
CC(=O)Nc1ccc(S(=O)(=O)N(CC(C)C)C[C@@H](O)[C@H](Cc2ccccc2)NC(=O)[C@@H](NC(=O)OCc2ccccn2)C(C)C)cc1,IIIB,-,p24,-,<1 µM
O=C(c1ccc([N+](=O)[O-])cc1)c1ccc2[nH]c(=O)oc2c1,IIIB,-,syncytia,-,>8 µg/mL
Cc1ccsc1C(=O)Nc1ccc(Cl)c(/C=N/OC(C)(C)C)c1,-,RT-V106A,syncytia,-,4.5 µM
CC(C)CN(C[C@@H](O)[C@H](Cc1ccccc1)NC(=O)OC1CCOC1)S(=O)(=O)c1ccc(Cl)cc1,IIIB,-,p24,-,<1 µM
Cc1ccc(C(C)S(=O)(=O)c2c(C)ccc[n+]2[O-])c(C)c1,MN,-,cytopathic effect,-,36 µg/mL
C=CCOc1cc(NC(=S)c2sccc2C)ccc1OC,-,RT-L100I,syncytia,-,15 µM
Cc1ccc(C(C)S(=O)(=O)c2c(C)ccc[n+]2[O-])c(C)c1,HE,-,syncytia,-,17 µg/mL
O=C1c2cccc([N+](=O)[O-])c2C(=O)N1C1C2CC3CC(C2)CC1C3,IIIB,-,syncytia,-,>4 µg/mL
CC(C)CN(C[C@@H](O)[C@H](Cc1ccccc1)NC(=O)O[C@@H]1CCOC1)S(=O)(=O)c1cc(Cl)c(Cl)s1,IIIB,-,p24,-,<10 µM
C=C(Cl)COc1cc(NC(=S)c2ccsc2C)ccc1C#N,TIBO R82150-resistant (RT L100I),RT-L100I,syncytia,-,0.2 µg/mL
NS(=O)(=O)c1ccc(NC(=O)c2ccc(SSc3ccc(C(=O)Nc4ccc(S(N)(=O)=O)cc4)cc3)cc2)cc1,-,-,cytopathic effect / XTT,-,>100 µM
CC(C)=CCOc1cc(NC(=S)c2ccoc2C)ccc1Cl,-,RT-K103N,syncytia,-,0.069 µM
Cc1ccc(C)c(CS(=O)(=O)c2cccc[n+]2[O-])c1,MN,-,syncytia,-,10 µg/mL
Cc1cc(C)cc(Sc2c(C(C)C)c(=O)[nH]c(=S)n2COCCO)c1,IIIB TIBO R82913-resistant (RT K103N),RT-K103N,syncytia,-,0.6 µM
Cc1occc1C(=S)Nc1ccc(Cl)c(OCC(C)(C)C)c1,-,RT-V106A,syncytia,-,6 µM
Cc1ccc(C)c(C(Cl)S(=O)(=O)c2cc(C)cc[n+]2[O-])c1,MN,-,syncytia,-,≥4 µg/mL
CN(C)CCCNC(=O)c1ccccc1SSc1ccccc1C(=O)NCCCN(C)C,-,-,XTT,-,8.8 µM
CC(C)=CCOc1cc(NC(=S)c2ccoc2C)ccc1Cl,IIIB,-,syncytia,-,0.009 µM
COc1ccc(C)cc1CS(=O)(=O)c1cccc[n+]1[O-],RF,-,syncytia,-,10 µg/mL
CC1=C(C(=S)Nc2ccc(Cl)c(C=NOC(C)(C)C)c2)CCCO1,-,RT-L100I,syncytia,-,0.148 µM
COc1ccc(NC(=O)C2=C(C)OCCS2)cc1OCC=C(Cl)Cl,IIIB,-,syncytia,-,4 µg/mL
O=C(c1cccc(Cl)c1)c1ccc2[nH]c(=O)oc2c1,IIIB,-,syncytia,-,>8 µg/mL
O=S(=O)(Nc1nnc2c3ccccc3ccn12)c1ccc(F)cc1S,RF,-,cytopathic effect / XTT,-,13.9 µM
Cc1occc1C(=O)Nc1ccc(Cl)c(/C=N/N2CCCC2)c1,HEPT-resistant (RT Y188L),RT-Y188L,syncytia,-,<2 µg/mL
C/C=C/COc1cc(NC(=S)c2ccoc2C)ccc1Cl,-,RT-Y181C,syncytia,-,0.58 µM
COc1ccc(C)cc1CS(=O)(=O)c1cccc[n+]1[O-],IIIB,-,syncytia,-,5.9 µg/mL
CCc1c(Sc2ccccc2)n(COCc2ccccc2)c(=S)[nH]c1=O,IIIB,Nevirapine resistant (RT Y181C),syncytia,-,0.34 µM
Nc1cccc(C2NC(=O)NC(C3CC3)=C2C(=O)OCC2CCCCC2)c1,-,-,p24 / ELISA,-,1–5 µM
Cc1sccc1C(=O)Nc1ccc(Cl)c(OCC=C(Cl)Cl)c1,Pyridone-resistant (RT Y181C),RT-Y181C,syncytia,-,2.5 µg/mL
Cc1occc1C(=S)Nc1ccc(Cl)c(/C=N/OCc2ccccc2)c1,-,RT-V106A,syncytia,-,1.6 µM
CC(=O)Nc1ccc(S(=O)(=O)N(CC(C)C)C[C@@H](O)[C@H](Cc2ccccc2)NC(=O)[C@@H](NC(=O)OCc2ccncc2)C(C)C)cc1,IIIB,-,p24,-,<1 µM
Cc1occc1C(=S)Nc1ccc(Cl)c(/C=N/OC(C)(C)C)c1,IIIB,-,syncytia,0% human serum,0.057 µM
CC1=C(C(=O)OCC2CCCCC2)C(c2cccc(N)c2)NC(=O)N1,-,-,p24 / ELISA,-,≤1 µM
CO/N=C/c1cc(NC(=S)c2ccoc2C)ccc1OC,-,RT-K103N,syncytia,-,3.9 µM
Cc1ccc(C)c(CS(=O)c2ccc(Cl)c[n+]2[O-])c1,-,RT-K103N,cytopathic effect,-,9 µg/mL
Cc1ccsc1C(=S)Nc1ccc(Cl)c(C(=O)OC2CCCCC2)c1,IIIB,-,syncytia,-,0.225 µM
COc1ccc(S(=O)(=O)N(CC(C)C)C[C@@H](O)CCN(CC2CCCC2)S(=O)(=O)C2CCS(=O)(=O)C2)cc1,IIIB,-,p24,-,<1 µM

Blank or dashed fields: not listed here. Neighbouring rows are from separate reports. a–b is a range or a potency band.